Anti-infective test results gathered from many reports (values: NIAID ChemDB through PubChem).

Shared fields: target-level tests; agent: Hepatitis C virus; target: Nonstructural protein 5B; endpoint: inhibition

Percent inhibition refers to the dose given; in toxicity tests it is the harm to the cells. Neighbouring rows are from separate reports.

{"compound": "Nc1nc(=O)n([C@@H]2CO[C@H](COP(=O)(O)OP(=O)(O)OP(=O)(O)O)O2)cc1F", "dose": "100 µM", "result": "81%"}
{"compound": "CC(Cc1ccccn1)Nc1cc(C(=O)Nc2ccc3cn[nH]c3c2)c(F)cc1F", "dose": "1 µg/mL", "result": "26%"}
{"compound": "O=C(NCCc1cccnc1)c1ccc(S(=O)(=O)Nc2ccc(N3CCOCC3)cc2)cc1", "dose": "1 µg/mL", "result": "68%"}
{"compound": "Cc1cn([C@H]2CO[C@@H](COP(=O)(O)OP(=O)(O)OP(=O)(O)O)O2)c(=O)nc1N", "dose": "50 µM", "result": "9%"}
{"compound": "CSc1nc(Nc2ccc(N3CCOCC3)cc2)cc(N2CCN(CC(=O)N3CCOCC3)CC2)n1", "dose": "1 µg/mL", "result": "72%"}
{"compound": "O=C(Nc1ccc2cn[nH]c2c1)c1cc(NCCCn2ccnc2)c(F)cc1F", "dose": "0.1 µg/mL", "result": "30%"}
{"compound": "O=C(O)c1ccc(S(=O)(=O)Nc2ccc(N3CCOCC3)cc2)cc1", "dose": "0.01 µg/mL", "result": "24%"}
{"compound": "CCNC(=O)CN1CCN(c2cc(Nc3ccc(N4CCOCC4)cc3)nc(SC)n2)CC1", "dose": "1 µg/mL", "result": "61%"}
{"compound": "Cc1cc(C(F)(F)F)nc(N2C(=O)CSC2c2c(F)cccc2Cl)n1", "strain": "NS5B", "dose": "250 µM", "result": "72.1%"}
{"compound": "O=C(c1ccc(S(=O)(=O)Nc2ccc(N3CCOCC3)cc2)cc1)N(Cc1ccccn1)Cc1ccccn1", "dose": "0.01 µg/mL", "result": "18%"}
{"compound": "COc1nc(Nc2ccc3cn[nH]c3c2)nc(NN2CCOCC2)n1", "dose": "0.1 µg/mL", "result": "10%"}
{"compound": "Nc1nc2c(ncn2[C@@H]2CO[C@H](COP(=O)(O)OP(=O)(O)OP(=O)(O)O)O2)c(=O)[nH]1", "dose": "50 µM", "result": "6%"}
{"compound": "CCN1CCN(C(=O)CN2CCN(c3cc(Nc4ccc(N5CCOCC5)cc4)nc(SC)n3)CC2)CC1", "dose": "1 µg/mL", "result": "68%"}
{"compound": "O=C1CSC(c2ccc(F)cc2)N1c1ccccn1", "strain": "NS5B", "dose": "250 µM", "result": "68.7%"}
{"compound": "COCCNc1nc(Nc2ccc3[nH]ncc3c2)nc(OC)n1", "dose": "0.1 µg/mL", "result": "46%"}
{"compound": "CSc1nc(Nc2ccc(N3CCOCC3)cc2)cc(N2CCN(CC(=O)N3CCC(CO)CC3)CC2)n1", "dose": "1 µg/mL", "result": "58%"}
{"compound": "COc1nc(Nc2ccc3[nH]ncc3c2)nc(NN2CCOCC2)n1", "dose": "1 µg/mL", "result": "33%"}
{"compound": "O=C1CSC(c2c(Cl)cccc2Cl)N1Cc1cccnc1", "strain": "NS5B", "dose": "250 µM", "result": "84.7%"}
{"compound": "CSc1nc(Nc2ccc(N3CCOCC3)cc2)cc(N2CCN(CC(=O)NCCCN3CCOCC3)CC2)n1", "dose": "1 µg/mL", "result": "77%"}
{"compound": "COc1nc(Nc2ccc3cn[nH]c3c2)nc(N2CCN(C)CC2)n1", "dose": "0.1 µg/mL", "result": "0%"}
{"compound": "CN(C)CCNc1cc(C(=O)Nc2ccc3[nH]ncc3c2)c(F)cc1F", "dose": "1 µg/mL", "result": "60%"}
{"compound": "CSc1nc(Nc2ccc(N3CCOCC3)cc2)cc(N2CCN(CC(=O)N3CCC(N)CC3)CC2)n1", "dose": "1 µg/mL", "result": "75%"}
{"compound": "O=C(NCCc1ccncc1)c1ccc(S(=O)(=O)Nc2ccc(N3CCOCC3)cc2)cc1", "dose": "10 µg/mL", "result": "90%"}
{"compound": "CON1C(Nc2ccc3cn[nH]c3c2)=NC(NC(C)C)=NC1NC(C)C", "dose": "1 µg/mL", "result": "23%"}
{"compound": "O=C(Nc1ccc2[nH]ncc2c1)c1cc(NCCN2CCCC2)c(F)cc1F", "dose": "0.1 µg/mL", "result": "10%"}
{"compound": "Cc1cccc(N2C(=O)CSC2c2ccc(N(C)C)cc2)n1", "strain": "NS5B", "dose": "250 µM", "result": "64.2%"}
{"compound": "Nc1ccn([C@@H]2CO[C@H](COP(=O)(O)OP(=O)(O)OP(=O)(O)O)O2)c(=O)n1", "dose": "100 µM", "result": "15%"}
{"compound": "COc1nc(Nc2ccc3[nH]ncc3c2)nc(N2CCN(C)CC2)n1", "dose": "1 µg/mL", "result": "26%"}
{"compound": "CCN(CCN(C)C)C(=O)CN1CCN(c2cc(Nc3ccc(N4CCOCC4)cc3)nc(SC)n2)CC1", "dose": "1 µg/mL", "result": "70%"}
{"compound": "O=C(Nc1ccc2[nH]ncc2c1)c1cc(NCCN2CCOCC2)c(F)cc1F", "dose": "0.1 µg/mL", "result": "14%"}

The last 4 rows once more:

{"compound": "Nc1ccn([C@@H]2CO[C@H](COP(=O)(O)OP(=O)(O)OP(=O)(O)O)O2)c(=O)n1", "dose": "100 µM", "result": "15%"}
{"compound": "COc1nc(Nc2ccc3[nH]ncc3c2)nc(N2CCN(C)CC2)n1", "dose": "1 µg/mL", "result": "26%"}
{"compound": "CCN(CCN(C)C)C(=O)CN1CCN(c2cc(Nc3ccc(N4CCOCC4)cc3)nc(SC)n2)CC1", "dose": "1 µg/mL", "result": "70%"}
{"compound": "O=C(Nc1ccc2[nH]ncc2c1)c1cc(NCCN2CCOCC2)c(F)cc1F", "dose": "0.1 µg/mL", "result": "14%"}